Measurements reported in PubChem BioAssay AID504761 (Drosophila RNAi Screening Center, 2011).
Screen: 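Genome-wide fly cell screen for genes dengue virus requires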 (primary screen). System: D.Mel-2 cells from Drosophila. Reagents: long dsRNA against Drosophila genes. Treatment: infection with dengue virus type 2; dose and infection time not stated. Measurement: 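Cells stained for dengue envelope protein and imaged; percent of infected cells per well on duplicate plates, ranked by infection, with stained nuclei counted for cell number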. Scale: infection score: higher = more virus-infected cells. Hit rule: 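Very low infection ranking in both replicate wells (chance probability at most 0.065), then a retest showing infection dropped 1.5-fold or more at p below 0.05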. Meaning of the calls: active = confirmed: knock-down lowers infection; inactive = not picked or not confirmed.
The deposit covers about 22,000 reagents; this is an unselected part of those with a known target gene and a result. Of all reagents, 116 (0.52%) are marked active. 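Calls depend on retest data that are not deposited; infection was ranked per plate without normalising between plates; the unit of the infection score is not given.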 A number with no mark means an inactive call. Reagents against one gene are numbered here. Further read-outs or replicates are left out here. The record does not give: the amount of reagent, the time to read-out.

What did the screen give for CG4238?
infection score, replicate 1: 16.4

With PlexA (Plexin A), how do the results read?
infection score, replicate 1: 6.63

Which result is listed for CG30010?
infection score, replicate 1: 0.58

For mfas (midline fasciclin) #1, how do the results read?
infection score, replicate 1: 14.2

Which result is listed for mfas (midline fasciclin) #2?
infection score, replicate 1: 21.1

What is on record for CG1701?
infection score, replicate 1: 9.42

How did the screen score Hsp26 (Heat shock protein 26)?
infection score, replicate 1: 4.8

For RluA-2 (RluA pseudouridine synthase 2), how do the results read?
infection score, replicate 1: 31.6

What is on record for Coq8 (Coenzyme Q8)?
infection score, replicate 1: 2.46

What is on record for CG13154?
infection score, replicate 1: 9.08

What did the screen give for RpS4 (Ribosomal protein S4)?
infection score, replicate 1: 6.01

For CG6508, what was measured?
infection score, replicate 1: 3.08

How did the screen score CG2964?
infection score, replicate 1: 2.72

For Sld5, what was measured?
infection score, replicate 1: 5.37

With Egfr (Epidermal growth factor receptor) #1, how do the results read?
infection score, replicate 1: 1.45

What did the screen give for Egfr (Epidermal growth factor receptor) #2?
infection score, replicate 1: 17.6

What is on record for CG2681 #1?
infection score, replicate 1: 20

For CG2681 #2, how do the results read?
infection score, replicate 1: 1.55

What did the screen give for fand (fandango) #1?
infection score, replicate 1: 13.1

Which result is listed for fand (fandango) #2?
infection score, replicate 1: 3.45

For CG18754, what was measured?
infection score, replicate 1: 2.24

An excerpt taken from the entries so far, as a working copy:
mfas (midline fasciclin) #2 | infection score, replicate 1: 21.1
CG1701 | infection score, replicate 1: 9.42
Hsp26 (Heat shock protein 26) | infection score, replicate 1: 4.8
